Assay results from patent publication US20180009859A1, “PHARMACOLOGICAL MODULATORS OF GABAA RECEPTORS AND THEIR USE” (priority 2015, published 2018).

Test system: GABAA receptors in SPMs
Type: binding, rat

B1: ^125I-rMmTX2: MmTX2 radioactively labeled by lacto-peroxidase-catalyzed iodination (protein)
peptide: LTCKTCPFTTCPNSESCPGGQSICYQRKWEEHHGERIERRCVANCPAFGSHDTSLLCCTRDNCN
ratio of Bmax with/without PTX (1 mM PTX): 2.01 | maximum capacity Bmax (SPMs, without PTX): 264 ± 14 fmol/mg | Bmax with PTX (in the presence of 1 mM PTX): 532 ± 33 fmol/mg
